This passage reports SI (selectivity safety index = CC50/IC50) results from paper PMC12736150 (Pharmaceuticals, 2025).

The subject of this data set is MPXV strain MOH-NRC-0002/2022, clade II lineage A.2.1. As to conditions: MPXV in Vero-E6 cells.

`CC(C)C(=O)OC[C@H]1O[C@@H](n2ccc(NO)nc2=O)[C@H](O)[C@@H]1O` [Molnupiravir] returned an SI (selectivity safety index = CC50/IC50) of 19.5.
